Compound potency records, mixed from different reports. Data source: NIAID ChemDB in PubChem.

All rows: whole-cell or culture tests; species: Mycobacterium tuberculosis

MIC bound: limit read from a one-dose screen. ECn: concentration that inhibits the pathogen or its effect by n%. Percent inhibition refers to the dose given; in toxicity tests it is the harm to the cells. Blank or dashed fields: not listed here. A number after MIC or MFC names an inhibition level or a share of isolates. Conditions beyond the fields shown may differ between rows.

smiles	strain or isolate	setting	changes	method	endpoint	dose	result
NC(=O)c1cnccn1	CDC89 niacin-positive				MIC		≤4 µg/mL
CC1(C(=O)N2CCN(S(=O)(=O)c3cccc4cnccc34)CC2)CCCCC1	SRMV2.6		Inosine monophosphate dehydrogenase-resistant	resazurin	MIC90		>250 µM
C[C@@H]1CN(c2c(F)c(N)c3c(=O)c(C(=O)O)cn(C4CC4)c3c2F)C[C@H](C)N1	900241				MIC		0.1 µg/mL
FC(F)(F)c1ccc(Cl)c(NC(=S)SC2CCCCC2)c1	H37Rv			BACTEC	MIC bound		≤128 µg/mL
NC(=O)c1cnccn1	Isolate K10400				MIC		>500 µg/mL
CC(=O)Nc1ccc(S(=O)(=O)Nc2ccc(C(=O)O)c(O)c2)cc1	H37Rv				MIC		100 µg/mL
O=C(Oc1cc(Cl)ccc1C(=O)Nc1ccc(F)cc1)c1cnccn1	H37Rv 331/88	14 d			MIC		2 µM
CC1COc2c(N3CCN(C)CC3)c(F)cc3c(=O)c(C(=O)O)cn1c23	2888-3				MIC		1 µg/mL
CCN(CC)CCSCCNc1ccc2ccccc2n1.Cl	H37Rv				MIC		100 µg/mL
CC(C)N=c1cc2n(-c3ccc(Cl)cc3)c3ccccc3nc-2cc1Nc1ccc(Cl)cc1	H37Rv			fluorescence	MIC90		0.14 µg/mL
COc1ccc(OC)c(NC(=O)C(=O)Nn2c(=S)[nH]c3ccccc3c2=O)c1	H37Rv			BACTEC	MIC bound		>12.5 µg/mL
CN[C@@H]1[C@H](O[C@H]2[C@H](O[C@H]3[C@H](O)[C@@H](O)[C@H](N=C(N)N)[C@@H](O)[C@@H]3N=C(N)N)O[C@@H](C)[C@]2(O)C=O)O[C@@H](CO)[C@H](O)[C@H]1O	M21		MDR	resazurin	MIC		>8 µg/mL
CCN(CC)CCC(C(N)=O)c1ccccc1	H37Rv				MIC		>100 µg/mL
O=C(Oc1ccc(Cl)cc1C(=O)Nc1ccc(Cl)c(Cl)c1)c1cnccn1	H37Rv 331/88	14 d			MIC		1 µM
COc1cc2c(c(OC)c1O)C(=O)CO2	H37Rv			BACTEC	MIC bound		>12.5 µg/mL
CN(C)CCCN1c2ccccc2Sc2ccc(Cl)cc21	Isolate C drug-resistant				MIC		30 µg/mL
O=C(O)c1ccc(O)cc1O	H37Rv				MIC		>100 µg/mL
COc1cc2oc(-c3ccc(O)cc3O)c(CC=C(C)C)c(=O)c2c(O)c1/C=C/C(C)C	H37Rv			BACTEC	inhibition	12.5 µg/mL	99%
CO[C@H]1/C=C/O[C@@]2(C)Oc3c(C)c(O)c4c(O)c(c(/C=N/N5CCN(C)CC5)c(O)c4c3C2=O)NC(=O)/C(C)=C\C=C\[C@H](C)[C@H](O)[C@@H](C)[C@@H](O)[C@@H](C)[C@H](OC(C)=O)[C@@H]1C	M27		MDR	resazurin	MIC		>2 µg/mL
C/C=C/c1ccc2oc(-c3ccc(O)c(OC)c3)c(C)c2c1	Clinical isolate 57			resazurin / absorbance	MIC		7.8 µg/mL
O=C1CCCCCCCCCCCCCCO1	H37Rv			BACTEC	MIC		≥12.5 µg/mL
NC[C@@H]1O[C@H](O[C@H]2[C@@H](O)[C@H](O[C@@H]3[C@@H](O)[C@H](N)C[C@H](N)[C@H]3O[C@H]3O[C@H](CO)[C@@H](O)C[C@H]3N)O[C@@H]2CO)[C@H](N)[C@@H](O)[C@@H]1O[C@H]1O[C@H](CO)[C@@H](O)[C@H](O)[C@@H]1O	H37Rv (capreomycin-resistant)				EC50		≥50 µg/mL
O=[S@@]1Nc2cc(Cl)c(Cl)cc2S1	H37Rv			BACTEC	MIC bound		>12.5 µg/mL
CC[C@H]1OC(=O)[C@H](C)C(=O)[C@H](C)[C@@H](O[C@@H]2O[C@H](C)C[C@H](N(C)C)[C@H]2O)[C@](C)(OC)C[C@@H](C)C(=O)[C@H](C)[C@H]2N(NCCCc3ccnc4ccccc34)C(=O)O[C@]12C	H37Rv				MIC		10 µg/mL
O=C(C1CCCCC1)N1CCC(NS(=O)(=O)c2cccc3cnccc23)CC1	H37Rv			resazurin	MIC90		>100 µM
Oc1c(Cl)cc(Cl)cc1C1N2CCCCC2C2c3cccn3-c3ccccc3N21	H37Rv			resazurin	inhibition	6.25 µg/mL	68%
O=[N+]([O-])c1cccc(NC(=S)Nc2ccccc2)c1	H37Rv				MIC		100 µg/mL
CCCc1ccc2oc(-c3ccc(O)c(OC)c3)c(C)c2c1	Clinical isolate 91		isoniazid and streptomycin resistant	resazurin / absorbance	MIC		7.8 µg/mL
O=C(Oc1ccc(Br)cc1C(=O)Nc1ccc(C(F)(F)F)cc1)c1cnccn1	multidrug resistant Praha 1	14 d			MIC		0.125 µM
COc1cc2oc3cc(O)c(CCC(C)C)c(O)c3c(=O)c2c(CCC(C)C)c1OC	M6			resazurin	MIC		1.56 µg/mL
CCCC(=O)c1ccc(Cl)cc1	H37Rv				MIC		>100 µg/mL
CC1=C(c2c(C)cc(O)c3c2C(=O)C(c2c(O)c4c(C)cccc4oc2=O)=C(c2c(O)c4c(C)cccc4oc2=O)C3=O)C(=O)c2c(O)cccc2C1=O	MTCS1				MIC		2.44 µg/mL
COc1ccc(OC)c(/C=N/NC(=O)CSc2nc3ccc(C)cc3c(=O)n2-c2ccccc2)c1	H37Rv				MIC		>6.25 µg/mL
CCC(C(=O)C(C)CN(C)C)(c1ccccc1)c1ccccc1.Cl	H37Rv				MIC		>100 µg/mL
O=C(Oc1cc(Cl)ccc1C(=O)Nc1ccc(C(F)(F)F)cc1)c1cnccn1	multidrug resistant 234/2005	21 d			MIC		0.5 µM
OC(c1ccccc1)(c1ccccc1)c1ccccc1	H37Rv				MIC		>100 µg/mL
CCOC(=O)c1nc2ccccc2nc1Nc1ccc(OC)c(OC)c1	H37Rv			BACTEC	inhibition	12.5 µg/mL	5%
CO[C@@H]1C/C=C\C=C\C[C@H](C)[C@@H](O)C[C@@H](O)[C@H](C)[C@H](O)CC(=O)O[C@H]([C@H](C)[C@H](O)/C=C(\C)CC/C=C/C=C/CC(O)CC(C)CCC(=O)O)C[C@H](O)CCC1	HUG.MB.3649		inhA mutant isoniazid resistant	resazurin / absorbance	MIC		1.7 µg/mL
C/C=C(/C)C(=O)OC1CC(C)(C)CC2C3=CCC4C5(C)CC[C@H](O)C(C)(C)C5CC[C@@]4(C)[C@]3(C)CC[C@@]12C(=O)O	H37Rv (ethambutol-resistant)				MIC		50 µg/mL
CC(C)OC(=O)CC(C(=O)OC(C)C)N1CCN(C(CC(=O)OC(C)C)C(=O)OC(C)C)CC1	H37Rv				MIC		>100 µg/mL
C/C=C/c1ccc2c(c1)[C@@H](C)[C@H](c1ccc(OC)cc1)O2	Clinical isolate 57			resazurin / absorbance	MIC		7.8 µg/mL
COC(=O)[C@H]1[C@H](O)[C@H](C)[C@@H](O)[C@@H](C)/C=C(\C)C2=C3C(=C(C)C(=O)c4c(O)c(c(C)c(OC(C)=O)c43)NC(=O)/C(C)=C/C=C\[C@@H](C)C(O)[C@@H](C)[C@H]1O)OCO2	PZA-R				MIC		0.8 µg/mL
NC(=O)NC(=O)c1ccc([As](=O)(O)O)cc1	H37Rv				MIC		>100 µg/mL
Cc1c(NC(=S)Nc2ccccc2)c(=O)n(-c2ccccc2)n1C	H37Rv			BACTEC	MIC bound		>12.8 µg/mL
Cl.Nc1c(O)cccc1O	H37Rv				MIC		>100 µg/mL
Nc1ncnc2c1ncn2C1OC(CO)C(NC(=O)C(N)Cc2ccccc2)C1O	H37Rv			BACTEC	inhibition	12.5 µg/mL	-4%
CCOc1cc2oc3cc(O)c(CC=C(C)C)c(O)c3c(=O)c2c(CC=C(C)C)c1C(C)=O	H37Ra			resazurin	MIC		6.25 µg/mL
Cc1ccc2nc(SCC(=O)N/N=C/c3ccccc3[N+](=O)[O-])n(-c3ccccc3)c(=O)c2c1	H37Rv				MIC		>6.25 µg/mL
NNC(=O)c1ccncc1	H37Ra			resazurin	MIC		0.06 µg/mL
O=S(=O)(O)c1ccc2[nH]ncc2c1	H37Rv				MIC		>100 µg/mL
CO[C@H]1/C=C/O[C@@]2(C)Oc3c(C)c(O)c4c(O)c(c(/C=N/N5CCN(C6CCCC6)CC5)c(O)c4c3C2=O)NC(=O)/C(C)=C\C=C\[C@H](C)[C@H](O)[C@@H](C)[C@@H](O)[C@@H](C)[C@H](OC(C)=O)[C@@H]1C	L192				MIC		0.1 µg/mL
O=C(CC1CCCCC1)N1CCN(S(=O)(=O)c2cccc3cnccc23)CC1	SRMV2.6		Inosine monophosphate dehydrogenase-resistant	resazurin	MIC90		>250 µM
NC(=O)c1cnccn1	Erdman				MIC		50 µg/mL
Cc1cc2c(S(=O)(=O)N3CCN(C(=O)C4CCCCC4)CC3)cccc2cn1	H37Rv			resazurin	MIC90		>100 µM
COCc1cc(=O)[nH]c2ccccc12	H37Rv				MIC		>100 µg/mL
CC(C)(C)OC(=O)NCCc1cccc2c1oc1c(CCC(=O)O)cccc12	H37Rv			BACTEC	inhibition	12.5 µg/mL	-12%
N#Cc1cccc(CC(=O)N2CCN(S(=O)(=O)c3cccc4cnccc34)CC2)c1	SRMV2.6		Inosine monophosphate dehydrogenase-resistant	resazurin	MIC90		>250 µM
COc1ccccc1C1COC(c2ccccc2)(c2ccccc2)S1	H37Rv			BACTEC	inhibition	12.5 µg/mL	-17%
Cc1cccc(/C=N/NC(=O)CSc2nc3ccc(C)cc3c(=O)n2-c2ccccc2)c1	H37Rv				MIC		>6.25 µg/mL
COC(=O)Nc1ccc(NC(=O)c2cscn2)c(NC(=O)OC)n1	H37Rv			BACTEC	inhibition	12.5 µg/mL	-35%
COc1ccc(CC(O)CN(C)Cc2ccccc2)cc1OC.Cl	H37Rv				MIC		>100 µg/mL
O=C(C1CCCCC1)N1CCN(S(=O)(=O)c2cccc3ccccc23)CC1	H37Rv			resazurin	MIC90		>100 µM
CCOc1cc2oc3cc(O)c(CCC(C)C)c(O)c3c(=O)c2c(CCC(C)C)c1OC	M21			resazurin	MIC		3.12 µg/mL
CC(=O)C(N=Nc1cccc2c1C(=O)c1ccccc1C2=O)C(=O)Nc1ccccc1C	H37Rv			BACTEC	MIC bound		>12.5 µg/mL
Nc1nccc(NCCCCCN2CCCCC2)n1	H37Rv				MIC		>100 µg/mL
CC[C@H]1OC(=O)[C@H](C)[C@@H](O[C@H]2C[C@@](C)(OC)[C@@H](O)[C@H](C)O2)[C@H](C)[C@@H](O[C@@H]2O[C@H](C)C[C@H](N(C)C)[C@H]2O)[C@](C)(OC)C[C@@H](C)C(=O)[C@H](C)[C@@H](O)[C@]1(C)O	9133				MIC		>4 µg/mL
Nc1ccc(CC(Cc2ccc(N)cc2)C(=O)O)cc1	H37Rv				MIC		>100 µg/mL
CCOc1cc(/C=N/NC(=O)CSc2nc3ccc(C)cc3c(=O)n2-c2ccccc2)ccc1O	H37Rv				MIC		>6.25 µg/mL
O=C(Oc1ccc(Cl)cc1C(=O)Nc1cccc(C(F)(F)F)c1)c1cnccn1	multidrug resistant 7357/1998	14 d			MIC		0.5 µM
CC(C)=CCC/C(C)=C/CCC1(C)C=Cc2c(c3ccccc3oc2=O)O1	H37Rv			BACTEC	MIC bound		>12.5 µg/mL
COc1ccc(NC(C)=O)cc1N	H37Rv				MIC		>100 µg/mL
NNC(=O)c1ccncc1	101596				MIC		≥0.2 µg/mL
Cc1cc2c(cc1C)-c1c(oc3cc(C)c(C)cc13)-c1ccccc1C(=O)O2	H37Rv			BACTEC	inhibition	12.5 µg/mL	-11%
Cc1cc(O)c2c3c(c(=O)oc2c1)CCCC3	H37Rv				MIC		>100 µg/mL
COC1(C)CNCC(C)(C)NC(=O)C(C)(OC)CNCC(C)(C)NC1=O	H37Rv			resazurin	inhibition	6.25 µg/mL	-3%
CS(=O)(=O)CC(c1ccccc1)S(=O)(=O)[O-].[Na+]	H37Rv				MIC		>100 µg/mL
O=C1OC(c2ccccc2)=N/C1=C\c1cc2c(cc1Cl)OCO2	H37Rv			BACTEC	inhibition	12.5 µg/mL	1%
CC(=O)Nc1ccc(/C=N/NC(N)=S)cc1F	H37Rv			resazurin	MIC90		<0.1 µg/mL
O=C(NN1CCCCCC1)c1ccc(C(=O)NN2CCCCCC2)cc1	H37Rv			BACTEC	MIC		≥12.5 µg/mL
O=S(=O)(Oc1cccc2ccccc12)c1ccc(Br)cc1	H37Rv				MIC		>100 µg/mL

For reference, 6 entries again:

smiles,strain or isolate,setting,changes,method,endpoint,dose,result
CC1COc2c(N3CCN(C)CC3)c(F)cc3c(=O)c(C(=O)O)cn1c23,2888-3,,,,MIC,,1 µg/mL
CC(C)(C)OC(=O)NCCc1cccc2c1oc1c(CCC(=O)O)cccc12,H37Rv,,,BACTEC,inhibition,12.5 µg/mL,-12%
CO[C@H]1/C=C/O[C@@]2(C)Oc3c(C)c(O)c4c(O)c(c(/C=N/N5CCN(C)CC5)c(O)c4c3C2=O)NC(=O)/C(C)=C\C=C\[C@H](C)[C@H](O)[C@@H](C)[C@@H](O)[C@@H](C)[C@H](OC(C)=O)[C@@H]1C,M27,,MDR,resazurin,MIC,,>2 µg/mL
O=C(Oc1cc(Cl)ccc1C(=O)Nc1ccc(F)cc1)c1cnccn1,H37Rv 331/88,14 d,,,MIC,,2 µM
CCOc1cc2oc3cc(O)c(CCC(C)C)c(O)c3c(=O)c2c(CCC(C)C)c1OC,M21,,,resazurin,MIC,,3.12 µg/mL
NC[C@@H]1O[C@H](O[C@H]2[C@@H](O)[C@H](O[C@@H]3[C@@H](O)[C@H](N)C[C@H](N)[C@H]3O[C@H]3O[C@H](CO)[C@@H](O)C[C@H]3N)O[C@@H]2CO)[C@H](N)[C@@H](O)[C@@H]1O[C@H]1O[C@H](CO)[C@@H](O)[C@H](O)[C@@H]1O,H37Rv (capreomycin-resistant),,,,EC50,,≥50 µg/mL